Results of unrelated studies side by side (data: NIAID ChemDB).

Shared fields: target-level tests

Inhibition is in % at the dose shown (toxicity tests: loss of growth or viability). ICn: concentration for n% inhibition. a–b is a range or a potency band. Neighbouring rows are from separate reports. An empty or dashed field is not shown.

{"smiles": "COC(=O)C1CC(C(=O)O)NC1C(CC(C)C)NC(C)=O", "species": "Influenza A virus", "strain": "A/TOKYO/67", "target": "Neuraminidase", "read-out": "Ki", "result": "0.037 µM"}
{"smiles": "CC(=O)Nc1nc(C[C@H](Cc2ccc(OCC(=O)O)cc2)NC(=O)c2ccc3c(c2)nc(-c2ccoc2)n3C2CCCCC2)cs1", "species": "Poliovirus", "target": "RNA-dependent RNA polymerase", "read-out": "IC50", "result": ">25 µM"}
{"smiles": "CCN(C(=O)N1C[C@@H](C(=O)O)[C@@H](N)[C@@H]1CNC(C)=O)C(C)C", "species": "Influenza A virus", "strain": "A/TOKYO/67", "target": "Neuraminidase", "read-out": "Ki", "result": "6.3 µM"}
{"smiles": "CC(C)N(C(=O)N1C[C@H](C(=O)O)[C@H](NCc2ccccc2)C1)C(C)C", "species": "Influenza A virus", "strain": "A/TOKYO", "target": "Neuraminidase", "read-out": "IC50", "result": ">50 µM"}
{"smiles": "CCN(C(=O)N1C[C@H](C(=O)O)[C@H](N)[C@H]1CNC(C)=O)C(C)C", "species": "Influenza A virus", "strain": "A/TOKYO/67", "target": "Neuraminidase", "read-out": "IC50", "result": "4.4–69 µM"}
{"smiles": "O=C(N[C@H](C(=O)O)c1c[nH]c2ccc(O)cc12)c1ccc2c(c1)nc(-c1cc3ccccc3[nH]1)n2C1CCCCC1", "species": "Poliovirus", "target": "RNA-dependent RNA polymerase", "read-out": "IC50", "result": ">25 µM"}
{"smiles": "CCCCCCCCCCCCCCCCCC(=O)OC[C@@H](COP(=O)(O)OCCNCCO[C@@]1(C(=O)O)O[C@@H]([C@H](O)[C@H](O)CO)[C@H](NC(C)=O)[C@@H](O)[C@H]1F)OC(=O)CCCCCCCCCCCCCCCCC", "species": "Influenza A virus", "strain": "H7N2 A/DUCK/47/5/76", "target": "Sialidase", "read-out": "IC50", "result": "150 µM"}
{"smiles": "COc1ccc(CCNC(=O)c2ccc3c(c2)nc(/C=C/c2ccccc2)n3C2CCCCC2)cc1OC", "species": "Poliovirus", "target": "RNA-dependent RNA polymerase", "read-out": "IC50", "result": ">25 µM"}
{"smiles": "CCCCCCCCCCCCCCCCCC(=O)OC[C@@H](COP(=O)(O)OCCNCCO[C@@]1(C(=O)O)O[C@@H]([C@H](O)[C@H](O)CO)[C@H](NC(C)=O)[C@@H](O)[C@H]1F)OC(=O)CCCCCCCCCCCCCCCCC", "species": "Influenza A virus", "strain": "H2N2 A/Singapore/1/57", "target": "Sialidase", "read-out": "IC50", "result": "62.5 µM"}
{"smiles": "CC(=O)NCC1C(N)C(C(=O)O)CN1C(=O)N(C)C", "species": "Influenza A virus", "strain": "A/TOKYO/67", "target": "Neuraminidase", "read-out": "IC50", "result": "260 µM"}
{"smiles": "CN[C@@H]1CN(C(=O)N(C(C)C)C(C)C)C[C@@H]1C(=O)O", "species": "Influenza A virus", "strain": "A/TOKYO", "target": "Neuraminidase", "read-out": "IC50", "result": ">50 µM"}
{"smiles": "CCCCCCCCCCCCC/C=C/[C@@H](O)[C@H](CO[C@@H]1O[C@H](CO)[C@H](O)[C@H](OS(=O)(=O)O)[C@H]1O)NC(=O)CCCCCCCCCCCCCCCCCCCCCCC", "species": "Influenza A virus", "strain": "H1N1 A/swine/Wisconsin/15/30", "target": "Sialidase", "read-out": "inhibition", "dose": "200 µM", "result": "80.1%"}
{"smiles": "O=C(O)/C=C/c1ccc(CC2CCN(CNC(=O)c3ccc4c(c3)nc(-c3ccoc3)n4C3CCCCC3)CC2)cc1", "species": "Poliovirus", "target": "RNA-dependent RNA polymerase", "read-out": "IC50", "result": ">25 µM"}
{"smiles": "Nc1nc(=O)c2ncn(COCCO)c2c(=O)[nH]1", "species": "Japanese encephalitis virus", "target": "NTPase/helicase", "read-out": "IC50", "result": ">500 µM"}
{"smiles": "COC(=O)[C@H](Cc1ccc(O)cc1)NC(=O)c1ccc2c(c1)nc(-c1ccoc1)n2C1CCCCC1", "species": "Poliovirus", "target": "RNA-dependent RNA polymerase", "read-out": "IC50", "result": ">25 µM"}
{"smiles": "CC(C)N(C)C(=O)N1C[C@@H](N)[C@@H](C(=O)O)C1", "species": "Influenza A virus", "strain": "A/TOKYO", "target": "Neuraminidase", "read-out": "IC50", "result": ">50 µM"}

For reference, 2 entries again:

smiles | species | strain | target | read-out | dose | result
CCCCCCCCCCCCCCCCCC(=O)OC[C@@H](COP(=O)(O)OCCNCCO[C@@]1(C(=O)O)O[C@@H]([C@H](O)[C@H](O)CO)[C@H](NC(C)=O)[C@@H](O)[C@H]1F)OC(=O)CCCCCCCCCCCCCCCCC | Influenza A virus | H7N2 A/DUCK/47/5/76 | Sialidase | IC50 |  | 150 µM
CC(C)N(C)C(=O)N1C[C@@H](N)[C@@H](C(=O)O)C1 | Influenza A virus | A/TOKYO | Neuraminidase | IC50 |  | >50 µM